For 2 molecules, EC50 results are on record in article PMC4339892 (2015).

As a reminder, the EC50 is the midpoint of the concentration-response curve. A lower EC50 goes with greater potency.

This assay deals with T1, FLAG-gB^23–431 (EBV glycoprotein B residues 23-431, CendR motif exposed) (Epstein-Barr virus, UniProt P03188 23-431).
T1 chain: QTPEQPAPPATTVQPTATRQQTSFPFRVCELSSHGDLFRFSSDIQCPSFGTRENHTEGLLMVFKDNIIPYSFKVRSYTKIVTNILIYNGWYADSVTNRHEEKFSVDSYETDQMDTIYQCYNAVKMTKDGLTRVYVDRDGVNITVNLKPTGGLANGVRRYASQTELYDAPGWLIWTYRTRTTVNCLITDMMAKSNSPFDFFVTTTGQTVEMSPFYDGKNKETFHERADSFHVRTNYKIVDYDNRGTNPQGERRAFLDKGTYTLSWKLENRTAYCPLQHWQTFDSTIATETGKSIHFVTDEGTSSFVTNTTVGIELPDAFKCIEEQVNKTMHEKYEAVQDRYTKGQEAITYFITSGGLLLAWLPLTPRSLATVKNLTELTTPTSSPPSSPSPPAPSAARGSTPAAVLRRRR
Kind of assay: ELISA.

B1: GST-NRP2^ABC (soluble extracellular ABC domain of NRP2) (domain or fragment)
chain: GGRLNSKDAGYITSPGYPQDYPSHQNCEWIVYAPEPNQKIVLNFNPHFEIEKHDCKYDFIEIRDGDSESADLLGKHCGNIAPPTIISSGSMLYIKFTSDYARQGAGFSLRYEIFKTGSEDCSKNFTSPNGTIESPGFPEKYPHNLDCTFTILAKPKMEIILQFLIFDLEHDPLQVGEGDCKYDWLDIWDGIPHVGPLIGKYCGTKTPSELRSSTGILSLTFHTDMAVAKDGFSARYYLVHQEPLENFQCNVPLGMESGRIANEQISASSTYSDGRWTPQQSRLHGDDNGWTPNLDSNKEYLQVDLRFLTMLTAIATQGAISRETQNGYYVKSYKLEVSTNGEDWMVYRHGKNHKVFQANNDATEVVLNKLHAPLLTRFVRIRPQTWHSGIALRLELFGCRVTDAPCSNMLGMLSGLIADSQISASSTQEYLWSPSAARLVSSRSGWFPRIPQAQPGEEWLQVDLGTPKTVKGVIIQGARGGDSITAVEARAFVRKFKVSYSLNGKDWEYIQDPRTQQPKLFEGNMHYDTPDIRRFDPIPAQYVRVYPERWSPAGIGMRLEVLGCDWTDSKPTVETLGPTVKSEETTTPYPTEEEATECGENCSFEDDKDLQLPSGFNCNFDFLEEPCGWMYDHAKWLRTTWASSSSPNDRTFPDDRNFLRLQSDSQREGQYARLISPPVHLPRSPVCMEFQYQATGGRGVALQVVREASQESKLLWVIREDQGGEWKHGRIILPSYDMEYQIVFEGVIGKGRSGEIAIDDIRISTDVPLENCME[about 40 residues not spelt out]
In turn, B1 had an EC50 of 4.24 nM.

B2: GST-NRP1^ABC (soluble extracellular ABC domain of NRP1) (domain or fragment)
chain: [about 600 residues not spelt out]TYGFNCEFGWGSHKTFCHWEHDNHVQLKWSVLTSKTGPIQDHTGDGNFIYSQADENQKGKVARLVSPVVYSQNSAHCMTFWYHMSGSHVGTLRVKLRYQKPEEYDQLVWMAIGHQGDHWKEGRVLLHKSLKLYQVIFEGEIGKGNLGGIAVDDISINNHISQEDCAKPADLDKKNPEIKIDETGSTPGYEGEGEGDKNISRKPGNVLKTLDPILITII
The molecule B2 displayed an EC50 of 15.8 nM.
